Compound potency records, mixed from different reports. Data source: NIAID ChemDB in PubChem.

All rows: tests in culture; species: Mycobacterium tuberculosis

Neighbouring rows are from separate reports.

SMILES | strain | read by | read-out | tested at | value
Brc1ccc2nc(/C=C/c3ccccc3)[nH]c2c1 | H37Rv (ATCC 27294) | resazurin | MIC |  | >7.25 µg/mL
CCc1nc2ccc(Cl)cn2c1C(=O)NCc1ccc(N2CCC(c3ccc(OC(F)(F)F)cc3)CC2)cc1 | H37Rv | turbidity | MIC50 |  | 0.0015 µM
NC1CN(c2c(F)cc3c(=O)c(C(=O)O)cn(C4CC4)c3c2Cl)CC12CC2 | 71 (RFP-resistant) |  | MIC |  | 0.78 µg/mL
O=C1C(=S)N(c2ccccc2)c2ccccc21 | CNCTC TBC1/47 |  | MIC |  | 16 µM
O=C(O)CC1S/C(=N\N=C\c2ccc(Cl)c(Cl)c2)N(c2ccccc2)C1=O |  |  | MIC |  | 90 µM
C[C@H]1[C@H](C)Oc2c3c(c4c(-c5ccccc5)cc(=O)oc4c2[C@H]1O)OC(C)(C)C=C3 | H37Rv | BACTEC | inhibition | 12.5 µg/mL | 99%
O=[N+]([O-])c1ccc(S(=O)(=O)c2nc3ccccc3s2)c2ncccc12 | H37Rv |  | MIC |  | 100 µg/mL
COc1ccc(-c2oc3ccc(Br)cc3c(=O)c2O)cc1 | H37Rv |  | MIC |  | >12.5 µg/mL
CCCCCOc1cccc(NC(=O)OC(C)CN2CCCCC2)c1 | My 331/88 |  | MIC |  | 16 µM
CC(=O)NC[C@H]1CN(c2ccc(N3CC4CC(=NO)CC4C3)c(F)c2)C(=O)O1 | H37Rv | resazurin | MIC |  | 0.5 µg/mL
Nc1ccc(S(=O)(=O)c2ccc(N)cc2)cc1 | H37Rv |  | MBC |  | >40 µg/mL
Nc1ccc(Sc2c(Cl)cccc2Cl)c2ncccc12 | H37Rv |  | MIC |  | 100 µg/mL
COc1cc2c3c(cc4ccccc4c3c1OC)N(C)C(=O)C2=O |  |  | MIC |  | 32 µg/mL
Nc1ccccc1/C=C/C(=O)c1cc(Br)ccc1O | H37Rv |  | MIC |  | >12.5 µg/mL
CCOC(=O)C(=O)N=Nc1c(S)n(CC)c2ccccc12 | CNCTC TBC1/47 |  | MIC |  | >1000 µM
c1cnc2c(c1)ccc1cccnc12 | H37Rv | resazurin / absorbance | MIC90 |  | 11.8 µM
COc1c(N2CC3CCCNC3C2)c(F)cc2c(=O)c(C(=O)O)cn(C3CC3)c12 | CSU87 | broth dilution / visual reading | MIC |  | 0.06 µg/mL
O=[N+]([O-])c1ccc(Sc2ccc(Cl)cc2Cl)c2ncccc12 | H37Rv |  | MIC |  | 4 µg/mL
COc1cc2c3c(cc4ccccc4c3c1OC)NC2=O |  |  | MIC |  | 12 µg/mL
Cc1ccc(/C=C/c2nc3ccc([N+](=O)[O-])cc3[nH]2)cc1 | H37Rv (ATCC 27294) | resazurin | MIC |  | >7.25 µg/mL
CC(=O)NC[C@H]1CN(c2ccc(N3CCOCC3)c(F)c2)C(=O)O1 | 42 isolates |  | MIC50 |  | 0.5 µg/mL
CC(=O)CCCCCCCCCCCC/C=C/c1ccc2c(c1)OCO2 |  |  | MIC |  | 32 µg/mL
CC(C)(C)OC(=O)N1CCCC1C1=N/C(=C\c2ccccc2)C(=O)O1 | H37Rv | BACTEC | inhibition | 12.5 µg/mL | -16%
CCCCOc1ccccc1NC(=O)OCCN1CCCCC1 | My 331/88 |  | MIC |  | 125 µM
CN1CCN(CCCN2c3ccccc3Sc3ccc(C(F)(F)F)cc32)CC1 | H37Rv |  | MBC |  | 10–20 µg/mL
C=C1C(=O)O[C@H]2[C@H]1CC/C(C)=C/CC[C@@]1(C)O[C@@H]21 |  |  | MIC |  | 16 µg/mL
Cc1ccc(Oc2ccc([N+](=O)[O-])c3cccnc23)cc1 | H37Rv |  | MIC |  | 100 µg/mL
CC(=O)NC[C@H]1CN(c2ccc(N3CCOCC3)c(F)c2)C(=O)O1 | H37Rv |  | MIC |  | 0.5 µg/mL
CCCCCCCCCCCCCCC1CCC(CC(=O)OC)O1 |  |  | MIC |  | >128 µg/mL
Nc1ccc(C(=O)/C=C/c2ccccc2)cc1 | H37Rv |  | MIC |  | >12.5 µg/mL
O=[N+]([O-])c1ccc(S(=O)(=O)C2NC=CS2)c2ncccc12 | H37Rv |  | MIC |  | 40 µg/mL
NNC(=O)c1ccncc1 |  | visual reading | MIC |  | 0.05 µg/mL
COc1ccc(-c2cc(-c3cccc(Oc4ccccc4)c3)on2)cc1 | H37Rv |  | inhibition | 1 µg/mL | 100%
N#Cc1c(-c2ccc(Cl)cc2)n([O-])c2cc(Cl)c(Cl)cc2[n+]1=O | H37Rv |  | MIC |  | 0.2 µg/mL
O=C(/C=C/c1cc2ccccc2[nH]1)c1ccncc1 | H37Rv |  | MIC |  | >12.5 µg/mL
CCn1c(S)c(N=NC(N)=[NH2+])c2ccccc21 | CNCTC TBC1/47 |  | MIC |  | 125 µM
Cc1cc2c(=O)c3ccccc3oc2c(C(=O)O)c1C | H37Rv | BACTEC | inhibition | 12.5 µg/mL | 18%
CC(C)=C[C@H](O)C[C@@H](C)[C@H]1CC[C@@]2(C)C3=C(CC[C@]12C)[C@@]1(C)CCC(=O)C(C)(C)[C@@H]1CC3 |  |  | MIC |  | >128 µg/mL
O=[N+]([O-])c1ccc(S(=O)(=O)c2ccc(Cl)cc2Cl)c2ncccc12 | H37Rv |  | MIC |  | 10 µg/mL
CCCCNC(=O)COc1ccc(/C=C(/C(=O)c2ccc(OC)cc2)c2ccccc2)cc1 | H37Rv |  | MIC100 |  | >250 µg/mL
Clc1ccc(-c2cc(-c3cccc(Oc4ccccc4)c3)on2)cc1 | H37Rv |  | inhibition | 1 µg/mL | 100%
CC(=O)O[C@H]1C[C@@]2(C)[C@@H](C[C@@H](O)[C@H]3[C@@]4(C)CC[C@@H](O)[C@@H](C)[C@@H]4CC[C@@]32C)/C1=C(\CCC=C(C)C)C(=O)O | 151 strains (drug-susceptible) |  | MIC90 |  | ≤16 µg/mL
C#C[C@@]12O[C@]1(CO)[C@@H]1[C@@H](O)C[C@H]3C(C)(C)CCC[C@]3(C)[C@H]1CC2=O | Sensitive strains |  | MIC |  | 50 µg/mL
CCCCCOc1ccc(NC(=O)OC(C)CN2CCCCC2)cc1 | My 331/88 |  | MIC |  | 16 µM
O=Cc1ccc(OCCCCCCCCCCCOc2ccc(C=O)cc2)cc1 | H37Rv |  | inhibition | 1 µM | 42–54.4%
C=C1C(=O)O[C@@H]2/C=C(\C)CC[C@H]3OC3(C)CC[C@@H]12 |  |  | MIC |  | 64 µg/mL
OO | H37Rv |  | EC50 |  | >0.0005 µM
Nc1ccc(Sc2nc3ccccc3[nH]2)c2ncccc12 | H37Rv |  | MIC |  | 100 µg/mL
O=c1cc(-c2ccccc2)oc2ccc(I)cc12 | H37Rv |  | inhibition | 12.5 µg/mL | 27%
O=[N+]([O-])c1ccc(Sc2ccc3ccccc3c2)c2ncccc12 | H37Rv |  | MIC |  | 40 µg/mL
CC(=O)/C=C/CCCCCCCCCCCCc1ccccc1 |  |  | MIC |  | >128 µg/mL
O=C(/C=C/c1ccncc1)c1ccco1 | H37Rv |  | MIC |  | >12.5 µg/mL
CN1C(=S)C(=O)c2ccccc21 | CNCTC TBC1/47 |  | MIC |  | 16 µM
O=c1cc(-c2ccccc2)oc2cc(F)ccc12 | H37Rv |  | inhibition | 12.5 µg/mL | 7%
O=[N+]([O-])c1ccc2nc(/C=C/c3ccc(Cl)cc3Cl)[nH]c2c1 | H37Rv (ATCC 27294) | resazurin | MIC |  | >7.25 µg/mL
CC(=O)Nc1cccc(/C=C/C(=O)c2ccccc2O)c1 | H37Rv |  | MIC |  | >12.5 µg/mL
COc1cc2c3c(cc4ccccc4c3c1O)NC2=O |  |  | MIC |  | 8 µg/mL
CSC(SSC(S)C(N)=O)C(N)=O | H37Rv |  | MIC |  | 60 µM

The first 4 rows once more:

SMILES | strain | read by | read-out | tested at | value
Brc1ccc2nc(/C=C/c3ccccc3)[nH]c2c1 | H37Rv (ATCC 27294) | resazurin | MIC |  | >7.25 µg/mL
CCc1nc2ccc(Cl)cn2c1C(=O)NCc1ccc(N2CCC(c3ccc(OC(F)(F)F)cc3)CC2)cc1 | H37Rv | turbidity | MIC50 |  | 0.0015 µM
NC1CN(c2c(F)cc3c(=O)c(C(=O)O)cn(C4CC4)c3c2Cl)CC12CC2 | 71 (RFP-resistant) |  | MIC |  | 0.78 µg/mL
O=C1C(=S)N(c2ccccc2)c2ccccc21 | CNCTC TBC1/47 |  | MIC |  | 16 µM

ECn is the concentration giving n% inhibition of infection, replication or growth. a–b is a range or a potency band. A number after MIC or MFC names an inhibition level or a share of isolates. Inhibition is in % at the dose shown (toxicity tests: loss of growth or viability). Blank or dashed fields: not listed here.